What was measured:
[1] = test system: Anthracnose fungus (Glomerella cingulata); test: Anthracnose anti-germ test (Test Example E); conditions: for Anthracnose anti-germ test (rate of inhibition): 50 ppm/well, Czapek-dox broth, 25°C for 3 days, absorbance 600 nm
[2] = test system: Fusarium blight fungus (Fusarium graminearum); test: Fusarium blight anti-germ test (Test Example D); conditions: for Fusarium blight anti-germ test (rate of inhibition): 50 ppm/well, Czapek-dox broth, 25°C for 3 days, absorbance 600 nm
Magnaporthe grisea = test: Rice blast disease pot test (Test Example A); conditions: for Rice blast disease pot test (control value): 250 ppm sprayed, 2.5 ml/pot, rice variety Sachikaze, degree of disease development 6 to 8 days after inoculation
Botrytis cinerea = test: Tomato gray mold pot test (Test Example B); conditions: for Tomato gray mold pot test (control value): 250 ppm sprayed, 2.5 ml/pot, tomato variety Oogata Fukuju, degree of disease development 2 to 3 days after inoculation
[3] = test system: Speckled leaf blotch fungus (Septoria tritici); test: Speckled leaf blotch anti-germ test (Test Example F); conditions: for Speckled leaf blotch anti-germ test (rate of inhibition): 50 ppm/well, Czapek-dox broth, 25°C for 3 days, absorbance 600 nm
[4] = test system: Gray mold fungus (Botrytis cinerea); test: Gray mold anti-germ test (Test Example C); conditions: for Gray mold anti-germ test (rate of inhibition): 50 ppm/well, Czapek-dox broth, 25°C for 3 days, absorbance 600 nm

Row | Compound | Anthracnose anti-germ test (rate of inhibition) [1] | Fusarium blight anti-germ test (rate of inhibition) [2] | Rice blast disease pot test (control value) (Magnaporthe grisea) | Tomato gray mold pot test (control value) (Botrytis cinerea) | Speckled leaf blotch anti-germ test (rate of inhibition) [3] | Gray mold anti-germ test (rate of inhibition) [4] | rate of inhibition ([1]; Test Example E, anthracnose anti-germ test) | rate of inhibition ([2]; Test Example D, Fusarium blight anti-germ test) | control value (Magnaporthe grisea; Test Example A, rice blast disease pot test) | control value (Botrytis cinerea; Test Example B, tomato gray mold pot test) | rate of inhibition ([3]; Test Example F, speckled leaf blotch anti-germ test) | rate of inhibition ([4]; Test Example C, gray mold anti-germ test)
1 | Cc1cccc2c1[S+]([O-])C(C)(C)N=C2n1cnc2c(C)c(C)ccc21 (stereo not drawn) | H (H represents a control value or rate of inhibition of larger than 50%) | H (H represents a control value or rate of inhibition of larger than 50%) | H (H represents a control value or rate of inhibition of larger than 50%) | H (H represents a control value or rate of inhibition of larger than 50%) | L (L represents a control value or rate of inhibition of 50% or less) | H (H represents a control value or rate of inhibition of larger than 50%) | – | – | – | – | – | –
2 | Cc1c(Br)ccc2c1ncn2C1=NC(C)(C)S(=O)(=O)c2ccccc21 | H (H represents a control value or rate of inhibition of larger than 50%) | H (H represents a control value or rate of inhibition of larger than 50%) | L (L represents a control value or rate of inhibition of 50% or less) | H (H represents a control value or rate of inhibition of larger than 50%) | L (L represents a control value or rate of inhibition of 50% or less) | H (H represents a control value or rate of inhibition of larger than 50%) | – | – | – | – | – | –
3 | Cc1ccc2c(c1)OC(C)(C)N=C2n1cnc2c(C)c(Cl)cnc21 | H (H represents a control value or rate of inhibition of larger than 50%) | H (H represents a control value or rate of inhibition of larger than 50%) | H (H represents a control value or rate of inhibition of larger than 50%) | H (H represents a control value or rate of inhibition of larger than 50%) | L (L represents a control value or rate of inhibition of 50% or less) | H (H represents a control value or rate of inhibition of larger than 50%) | – | – | – | – | – | –
4 | CC(=O)C1(C)N=C(n2cnc3c(Cl)cccc32)c2cccc(C)c2O1 (stereo not drawn) | H (H represents a control value or rate of inhibition of larger than 50%) | L (L represents a control value or rate of inhibition of 50% or less) | H (H represents a control value or rate of inhibition of larger than 50%) | H (H represents a control value or rate of inhibition of larger than 50%) | L (L represents a control value or rate of inhibition of 50% or less) | H (H represents a control value or rate of inhibition of larger than 50%) | – | – | – | – | – | –
5 | Cc1ccc2c(ncn2C2=NC(C)(C)Oc3cc(Cl)ccc32)c1C | H (H represents a control value or rate of inhibition of larger than 50%) | H (H represents a control value or rate of inhibition of larger than 50%) | L (L represents a control value or rate of inhibition of 50% or less) | H (H represents a control value or rate of inhibition of larger than 50%) | L (L represents a control value or rate of inhibition of 50% or less) | H (H represents a control value or rate of inhibition of larger than 50%) | – | – | – | – | – | –
6 | Cc1cccc2c1OC(C)(C)N=C2n1cnc2c(C)cccc21 | H (H represents a control value or rate of inhibition of larger than 50%) | H (H represents a control value or rate of inhibition of larger than 50%) | H (H represents a control value or rate of inhibition of larger than 50%) | H (H represents a control value or rate of inhibition of larger than 50%) | H (H represents a control value or rate of inhibition of larger than 50%) | H (H represents a control value or rate of inhibition of larger than 50%) | – | – | – | – | – | –
7 | Cc1ccc2c(C3=NC(C)(C)Sc4c(F)cccc43)cnn2c1C | H (H represents a control value or rate of inhibition of larger than 50%) | H (H represents a control value or rate of inhibition of larger than 50%) | H (H represents a control value or rate of inhibition of larger than 50%) | H (H represents a control value or rate of inhibition of larger than 50%) | H (H represents a control value or rate of inhibition of larger than 50%) | H (H represents a control value or rate of inhibition of larger than 50%) | – | – | – | – | – | –
8 | Cc1cn2ncc(C3=NC(C)(C)Oc4c(C)cccc43)c2nc1C | H (H represents a control value or rate of inhibition of larger than 50%) | H (H represents a control value or rate of inhibition of larger than 50%) | H (H represents a control value or rate of inhibition of larger than 50%) | L (L represents a control value or rate of inhibition of 50% or less) | L (L represents a control value or rate of inhibition of 50% or less) | L (L represents a control value or rate of inhibition of 50% or less) | – | – | – | – | – | –
9 | COc1cccc2c1OC(C)(C)N=C2n1cnc2c(C)c(Cl)ccc21 | H (H represents a control value or rate of inhibition of larger than 50%) | L (L represents a control value or rate of inhibition of 50% or less) | L (L represents a control value or rate of inhibition of 50% or less) | H (H represents a control value or rate of inhibition of larger than 50%) | L (L represents a control value or rate of inhibition of 50% or less) | H (H represents a control value or rate of inhibition of larger than 50%) | – | – | – | – | – | –
10 | Cc1c(Cl)ccc2c1ncn2C1=NC(C)(C)Sc2c(F)cccc21 | H (H represents a control value or rate of inhibition of larger than 50%) | H (H represents a control value or rate of inhibition of larger than 50%) | H (H represents a control value or rate of inhibition of larger than 50%) | H (H represents a control value or rate of inhibition of larger than 50%) | L (L represents a control value or rate of inhibition of 50% or less) | H (H represents a control value or rate of inhibition of larger than 50%) | – | – | – | – | – | –
11 | Cc1cccc2c1OC(C)(C)N=C2n1cnc2c(Cl)cccc21 | H (H represents a control value or rate of inhibition of larger than 50%) | L (L represents a control value or rate of inhibition of 50% or less) | H (H represents a control value or rate of inhibition of larger than 50%) | H (H represents a control value or rate of inhibition of larger than 50%) | H (H represents a control value or rate of inhibition of larger than 50%) | H (H represents a control value or rate of inhibition of larger than 50%) | – | – | – | – | – | –
12 | Cc1cccc2c1S(=O)(=O)C(C)(C)N=C2n1cnc2c(C)c(C)ccc21 | H (H represents a control value or rate of inhibition of larger than 50%) | H (H represents a control value or rate of inhibition of larger than 50%) | H (H represents a control value or rate of inhibition of larger than 50%) | H (H represents a control value or rate of inhibition of larger than 50%) | H (H represents a control value or rate of inhibition of larger than 50%) | H (H represents a control value or rate of inhibition of larger than 50%) | – | – | – | – | – | –
13 | CCCCCC1(C)N=C(c2cnc3c(C)ccnn23)c2ccccc2O1 (stereo not drawn) | – | – | – | – | – | – | H (H represents a control value or rate of inhibition of larger than 50%) | H (H represents a control value or rate of inhibition of larger than 50%) | H (H represents a control value or rate of inhibition of larger than 50%) | H (H represents a control value or rate of inhibition of larger than 50%) | H (H represents a control value or rate of inhibition of larger than 50%) | H (H represents a control value or rate of inhibition of larger than 50%)
14 | Cc1ccc2c(ncn2C2=NC(C)(C)[S+]([O-])c3ccccc32)c1C (stereo not drawn) | H (H represents a control value or rate of inhibition of larger than 50%) | L (L represents a control value or rate of inhibition of 50% or less) | H (H represents a control value or rate of inhibition of larger than 50%) | H (H represents a control value or rate of inhibition of larger than 50%) | L (L represents a control value or rate of inhibition of 50% or less) | H (H represents a control value or rate of inhibition of larger than 50%) | – | – | – | – | – | –
